# Assay results as given in patent US20160024159A1, “Potent and selective inhibitors of Nav1.7” (published 2016).
# “And” between values parts separate entries of the source, which are not always exact repeats. Equal values may be shown once.
# Columns and labels:
# Test in all cases: cell-based or functional assay
# [1] = target: human voltage-gated sodium channel Nav1.3 (human) (UniProt Q9NY46)
# [2] = target: human voltage-gated sodium channel Nav1.7 (human) (UniProt Q15858)
# [3] = target: human voltage-gated sodium channel Nav1.5 (human) (UniProt Q14524)
# [4] = target: human voltage-gated sodium channel Nav1.4 (human) (UniProt P35499)
substance,measurement,setting,value
[Nle6;Atz(NPEG10)11]JzTx-V(1-29) (peptide; modification not given),"IC50, IonWorks Quattro electrophysiology",[1],0.2 µM and 0.4 µM
same,"IC50, IonWorks Quattro electrophysiology",[2],0.096 µM and 0.12 µM
same,"IC50, IonWorks Quattro electrophysiology",[3],> 5 µM
same,"IC50, IonWorks Quattro electrophysiology",[4],0.4 µM and 0.5 µM
same,Nav1.4/Nav1.7 (ratio of IC50),[4],4 fold
[Glu20;Val24;Tyr28]JzTx-V(1-29) (peptide; modification not given),"IC50, IonWorks Quattro electrophysiology",[1],> 5 µM
same,"IC50, IonWorks Quattro electrophysiology",[2],> 5 µM
same,"IC50, IonWorks Quattro electrophysiology",[3],> 5 µM
same,"IC50, IonWorks Quattro electrophysiology",[4],> 5 µM
[1-Nal23]JzTx-V(1-29) (peptide; modification not given),IC50 (IonWorks Quattro),[1],170 nM
same,IC50 (IonWorks Quattro),[2],50 nM
same,IC50 (IonWorks Quattro),[3],1500 nM
same,IC50 (IonWorks Quattro),[4],170 nM
[Ala6]JzTx-V(1-29) (peptide; modification not given),IC50 (IonWorks Quattro),[1],160 nM
same,IC50 (IonWorks Quattro),[2],94 nM
same,IC50 (IonWorks Quattro),[3],> 5000 nM
same,IC50 (IonWorks Quattro),[4],280 nM
[Glu20;Tyr28;Leu29]JzTx-V(1-29) (peptide; modification not given),"IC50, IonWorks Quattro electrophysiology",[1],3 µM and > 5 µM
same,"IC50, IonWorks Quattro electrophysiology",[2],0.084 µM and 0.23 µM
same,"IC50, IonWorks Quattro electrophysiology",[3],> 5 µM
same,"IC50, IonWorks Quattro electrophysiology",[4],4.5 µM and > 5 µM
[Ala8]JzTx-V(1-29) (peptide; modification not given),IC50 (IonWorks Quattro),[1],210 nM
same,IC50 (IonWorks Quattro),[2],25 nM
same,IC50 (IonWorks Quattro),[3],> 5000 nM
same,IC50 (IonWorks Quattro),[4],250 nM
[Glu1;1-Nal7]JzTx-V(1-29) (peptide; modification not given),"IC50, IonWorks Quattro electrophysiology",[1],0.4 µM and 0.5 µM
same,"IC50, IonWorks Quattro electrophysiology",[2],0.032 µM and 0.047 µM
same,"IC50, IonWorks Quattro electrophysiology",[3],> 5 µM
same,"IC50, IonWorks Quattro electrophysiology",[4],0.7 µM and 0.5 µM
same,Nav1.4/Nav1.7 (ratio of IC50),[4],21 fold and 10 fold
[Glu20;Tyr28;Cit29]JzTx-V(1-29) (peptide; modification not given),"IC50, IonWorks Quattro electrophysiology",[2],1.2 µM
[Ala7]JzTx-V(1-29) (peptide; modification not given),IC50 (IonWorks Quattro),[1],940 nM
same,IC50 (IonWorks Quattro),[2],150 nM
same,IC50 (IonWorks Quattro),[3],> 5000 nM
same,IC50 (IonWorks Quattro),[4],690 nM
[Glu20;Tyr28;1-Nal29]JzTx-V(1-29) (peptide; modification not given),"IC50, IonWorks Quattro electrophysiology",[1],2.1 µM
same,"IC50, IonWorks Quattro electrophysiology",[2],0.05 µM
same,"IC50, IonWorks Quattro electrophysiology",[3],4.6 µM
same,"IC50, IonWorks Quattro electrophysiology",[4],4.6 µM
same,Nav1.4/Nav1.7 (ratio of IC50),[4],91 fold
[Glu20;2-Nal24;Tyr28]JzTx-V(1-29) (peptide; modification not given),"IC50, IonWorks Quattro electrophysiology",[1],> 7 µM
same,"IC50, IonWorks Quattro electrophysiology",[2],0.86 µM and 1 µM
same,"IC50, IonWorks Quattro electrophysiology",[3],> 7 µM
same,"IC50, IonWorks Quattro electrophysiology",[4],> 7 µM
[Ala17]JzTx-V(1-29) (peptide; modification not given),IC50 (IonWorks Quattro),[1],80 nM
same,IC50 (IonWorks Quattro),[2],8 nM
same,IC50 (IonWorks Quattro),[3],2000 nM
same,IC50 (IonWorks Quattro),[4],60 nM
[Glu20;Leu24;Tyr28]JzTx-V(1-29) (peptide; modification not given),"IC50, IonWorks Quattro electrophysiology",[1],> 5 µM
same,"IC50, IonWorks Quattro electrophysiology",[2],> 5 µM
same,"IC50, IonWorks Quattro electrophysiology",[3],> 5 µM
same,"IC50, IonWorks Quattro electrophysiology",[4],> 5 µM
[Nle6;Atz(NPEG10)29]JzTx-V(1-29) (peptide; modification not given),"IC50, IonWorks Quattro electrophysiology",[1],3.9 µM
same,"IC50, IonWorks Quattro electrophysiology",[2],0.4 µM
same,"IC50, IonWorks Quattro electrophysiology",[3],> 7 µM
same,"IC50, IonWorks Quattro electrophysiology",[4],0.75 µM
same,Nav1.4/Nav1.7 (ratio of IC50),[4],2 fold
[Glu27]JzTx-V(1-29) (peptide; modification not given),PX hNav1.7 Tonic IC50,[2],12.3 nM
same,PX hNav1.4 Tonic IC50,[4],324 nM
[Glu20;Atz(NPEG10)23]JzTx-V(1-29) (peptide; modification not given),"IC50, IonWorks Quattro electrophysiology",[1],> 5 µM
same,"IC50, IonWorks Quattro electrophysiology",[2],5 µM
same,"IC50, IonWorks Quattro electrophysiology",[3],19.2 µM
same,"IC50, IonWorks Quattro electrophysiology",[4],> 5 µM
same,Nav1.4/Nav1.7 (ratio of IC50),[4],1 fold
[Glu1;Tyr28]JzTx-V(1-29) (peptide; modification not given),"IC50, IonWorks Quattro electrophysiology",[2],0.046 µM
same,"IC50, IonWorks Quattro electrophysiology",[3],> 5 µM
same,"IC50, IonWorks Quattro electrophysiology",[4],0.7 µM
same,Nav1.4/Nav1.7 (ratio of IC50),[4],16 fold
[Arg12]JzTx-V(1-29) (peptide; modification not given),IC50 (IonWorks Quattro),[1],50 nM
same,IC50 (IonWorks Quattro),[2],8 nM
same,IC50 (IonWorks Quattro),[3],2500 nM
same,IC50 (IonWorks Quattro),[4],150 nM
[Ala11]JzTx-V(1-29) (peptide; modification not given),IC50 (IonWorks Quattro),[1],140 nM
same,IC50 (IonWorks Quattro),[2],12 nM
same,IC50 (IonWorks Quattro),[3],3600 nM
same,IC50 (IonWorks Quattro),[4],160 nM
[Arg7]JzTx-V(1-29) (peptide; modification not given),IC50 (IonWorks Quattro),[1],80 nM
same,IC50 (IonWorks Quattro),[2],53 nM
same,IC50 (IonWorks Quattro),[3],> 5000 nM
same,IC50 (IonWorks Quattro),[4],400 nM
[Glu20]JzTx-V(1-29) (peptide; modification not given),IC50 (IonWorks Quattro),[1],2500 nM
same,IC50 (IonWorks Quattro),[2],73 nM
same,IC50 (IonWorks Quattro),[3],> 5000 nM
same,IC50 (IonWorks Quattro),[4],4600 nM
[Glu26]JzTx-V(1-29) (peptide; modification not given),PX hNav1.7 Tonic IC50,[2],> 1000 nM
[Nle6;Atz(NPEG10)7]JzTx-V(1-29) (peptide; modification not given),"IC50, IonWorks Quattro electrophysiology",[2],4.6 µM
[Glu20;Atz(NPEG10)28]JzTx-V(1-29) (peptide; modification not given),"IC50, IonWorks Quattro electrophysiology",[2],1.77 µM
same,"IC50, IonWorks Quattro electrophysiology",[3],15.4 µM
same,Nav1.4/Nav1.7 (ratio of IC50),[4],3 fold
[Glu22]JzTx-V(1-29) (peptide; modification not given),PX hNav1.7 Tonic IC50,[2],930 nM
same,PX hNav1.4 Tonic IC50,[4],4340 nM
[Glu5]JzTx-V(1-29) (peptide; modification not given),PX hNav1.7 Tonic IC50,[2],> 1000 nM
[Glu20;Trp29]JzTx-V(1-29) (peptide; modification not given),"IC50, IonWorks Quattro electrophysiology",[2],0.017 µM
CyA-[Nle6; Glu28]JzTx-V(1-29) (peptide; modification not given),PX hNav1.7 Tonic IC50,[2],7.02 nM
same,PX hNav1.4 Tonic IC50,[4],720 nM
Pra-[Glu20;Trp29]JzTx-V(1-29) (peptide; modification not given),"IC50, IonWorks Quattro electrophysiology",[2],0.018 µM
CyA-[Lys1; Nle6; Glu28]JzTx-V(1-29) (peptide; modification not given),PX hNav1.7 Tonic IC50,[2],5.4 nM
same,PX hNav1.4 Tonic IC50,[4],682 nM
[Glu3]JzTx-V(1-29) (peptide; modification not given),PX hNav1.7 Tonic IC50,[2],58.7 nM
same,PX hNav1.4 Tonic IC50,[4],453 nM
[Glu12]JzTx-V(1-29) (peptide; modification not given),PX hNav1.7 Tonic IC50,[2],0.904 nM
same,PX hNav1.4 Tonic IC50,[4],43.2 nM
Glu-[ Nle6; Glu28]JzTx-V(1-29) (peptide; modification not given),PX hNav1.7 Tonic IC50,[2],0.765 nM
same,PX hNav1.5 Tonic IC50,[3],7600 nM
same,PX hNav1.4 Tonic IC50,[4],99.2 nM
[Atz(NPEG10)1;Glu20]JzTx-V(1-29) (peptide; modification not given),"IC50, IonWorks Quattro electrophysiology",[1],> 5 µM
same,"IC50, IonWorks Quattro electrophysiology",[2],0.18 µM
same,"IC50, IonWorks Quattro electrophysiology",[4],> 5 µM
[Glu20;Tyr28;Lys29]JzTx-V(1-29) (peptide; modification not given),"IC50, IonWorks Quattro electrophysiology",[2],0.45 µM and 0.63 µM
[Nle6]JzTx-V(1-29) (peptide),"IC50, IonWorks Quattro electrophysiology",[1],> 5 µM
same,"IC50, IonWorks Quattro electrophysiology",[3],> 5 µM
same,"IC50, IonWorks Quattro electrophysiology",[4],> 5 µM
Lys-[Nle6; Glu28]JzTx-V(1-29) (peptide; modification not given),PX hNav1.7 Tonic IC50,[2],> 1000 nM
same,PX hNav1.5 Tonic IC50,[3],> 10000 nM
same,PX hNav1.4 Tonic IC50,[4],> 10000 nM
